Series [1] relates to Aspergillus niger lipase. Nature of the series: Fluorescence quenching of lipase (Stern-Volmer and double-logarithmic plots). The format is binding. Particulars: pH 7.4. The method, then: Lipase and HSA were dialyzed against KCl- buffer (pH 7) for 24 hrs. Stock solution of lipase was prepared in 10 mM phosphate buffer at pH 7.4 to obtain a particular concentration. […] These samples were incubated at 298.0 K for about 24 hrs.
Fluorescence spectra were recorded on Hitachi F-4010 spectrofluorometer equipped with circulating water bath to maintain the temperature of the cell. The quartz cell of path length 1.0 cm and band slit of 5.0 nm were used for all experiments. The excitation wavelength was 280 nm for lipase and HSA. Emission spectra were recorded from 300–450 nm for lipase and HSA protein.
Herein, the fluorescence intensities were corrected for absorption of the exciting light and reabsorption of the emitted light to decrease the inner filter effect according to the following equation [10] (Chi & Liu, 2011): Fcorr=Fobs10^Aex+Aem/2, Where Fcorr and Fobs are corrected and experimentally measured fluorescence intensities, respectively. […] The fluorescence intensity utilized in this paper was the corrected intensity.
Emission fluorescence spectra were measured in the 300–450 nm interval, at a fixed excitation wavelength of 280 nm. Occurrence of an emission maximum at 344 nm in the fluorescence spectrum of lipase can be attributed to the presence of tryptophan residue of lipase. […]

Series [2] relates to Aspergillus niger lipase. In words: Far-UV circular dichroism of lipase. As to conditions: 24 hours at 298.15 K, pH 7.4, native -9.34. Background: CD spectra are sensitive to the conformation of chiral molecules.

SMILES strings stand for the structures.

On to `Cc1ccc(C(C)C)c(O)c1` [thymol], for which the “n (stoichiometry of association process / number of binding sites)” value in series [1] was 2.52. The “MRE x 10^3 at 222nm (complex_400 μM)” value in series [2] is listed as -6.69.

For the molecule `C=CC(C)(O)CCC=C(C)C` (stereo not shown) [linalool], the “n (stoichiometry of association process / number of binding sites)” value in series [1] was 1.12. Further, the “MRE x 10^3 at 222nm (complex_400 μM)” value in series [2] is listed as -8.74.

Values taken from PMC9135303, “Interaction of fungal lipase with potential phytotherapeutics” (PLoS ONE, 2022).
